# From PMC7949043, “Allosteric regulation of the nickel-responsive NikR transcription factor from Helicobacter pylori”
# The exact form of at least one protein or probe is not confirmed.
# System: 5F-Trp-HpNikR
# Experiment: 19F-NMR
# Conditions: Ni(II) 1.2 eq per monomer, recombinant protein
Sequence,binding result (asymmetric cis state),binding result (symmetric cis state)
"ATATAACACTAATTCATTTTAAATAATAATTA (double strand) [ureA (32 bp, unlabeled)]",binds,–
"ATATATTATTAATTCATTTTAAATAATAATTA (double strand) [ureA-perf (32 bp, unlabeled)]",–,binds
